PubChem BioAssay AID624099 – ICCB-Longwood – 2012

Screen: 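Knock-downs relieving repression by E2 of an HPV18 LCR luciferase reporter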 (primary screen)
System: human C33A cervical carcinoma cells (HPV-negative) stably expressing BPV1 E2 and an HPV18 LCR luciferase reporter
Knock-down reagent: siRNA pool against human genes, 40 nM
Timing: 72 h
Measurement: 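Per-well luciferase luminescence, z-scored on each plate against the plate mean and SD with control wells left out, then averaged across three replicate plates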
Direction: mean z-score and z-score: higher = stronger reporter signal, weaker E2 silencing
Rule for the call: 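Hit if mean z-score reaches 2 and two or more of three replicate z-scores also reach 2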
This is one part, drawn at random, of about 21,000 reagents tested. Over the whole deposit, 497 (2.4%) got an active call. 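Higher z means weaker E2 silencing; only reporter increases were scored, and knock-downs that hurt cell survival may mask genuine repressor factors.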 The numbers tell different reagents against one gene apart.

gene knocked down,reagent no.,mean z-score,"z-score, replicate A","z-score, replicate B","z-score, replicate C",call
HBEGF,1,-0.95,-0.83,-1.01,-1.02,inactive
TCHH,1,0.45,0.76,0.57,0.03,inactive
GPX2,1,0.16,0,0.17,0.31,inactive
TMEM50A,1,1.02,0.89,1.13,1.04,inactive
CCN4,1,0.31,0.19,0.4,0.34,inactive
PRR23C,1,2.35,2.17,2.7,2.17,active
THYN1,1,0.53,0.25,0.53,0.8,inactive
KLC3,1,-0.56,-0.38,-0.81,-0.48,inactive
OTUD6A,1,-1.41,-1.39,-1.48,-1.36,inactive
PRAMEF17,1,-1.45,-1.51,-1.14,-1.69,inactive
TMEM201,1,1.89,1.92,2.3,1.45,inactive
LOC390777 (retired record),1,0.2,0.05,0.28,0.28,inactive
CFAP43,1,-0.54,-0.49,-0.93,-0.19,inactive
SKA3,1,-1.1,-1.13,-1.08,-1.08,inactive
OR5AP2,1,-0.91,-1.18,-1.02,-0.53,inactive
STK11,1,-1.01,-0.88,-1.04,-1.11,inactive
HJV,1,-1.94,-2.18,-1.83,-1.81,inactive
CENPL,1,0.66,0.88,0.67,0.43,inactive
NGLY1,1,-1.38,-1.33,-1.48,-1.33,inactive
FOXI2,1,3.11,2.27,3.76,3.29,active
DNASE1L2,1,-0.55,-0.46,-0.61,-0.59,inactive
EIF3A,1,-2.88,-2.97,-2.88,-2.8,inactive
ZNF382,1,0.15,0.01,0.15,0.3,inactive
DNAJC28,1,-0.31,-0.25,-0.22,-0.45,inactive
OR7A17,1,-0.31,-0.18,-0.55,-0.2,inactive
ASAP3,1,1.54,1.47,1.57,1.57,inactive
ZSCAN1,1,-0.77,-0.58,-0.78,-0.95,inactive
CLTCL1,1,0.57,0.69,0.63,0.4,inactive
TRIM37,1,-0.37,-0.23,-0.43,-0.46,inactive
LEPROTL1,1,1.14,0.86,1.31,1.25,inactive
PIMREG,1,0.73,0.85,0.76,0.58,inactive
LOC402253 (retired record),1,-0.33,0.07,0.34,-1.38,inactive
TSACC,1,-0.21,-0.22,-0.16,-0.24,inactive
TAF13,1,1.15,0.98,1.57,0.91,inactive
FOXO4,1,0.19,0.19,0.36,0.03,inactive
ITGB1BP1,1,-1.56,-1.01,-2.09,-1.58,inactive
CACNG6,1,-1.23,-1.89,-1.29,-0.51,inactive
COXFA4L3,1,-0.87,-0.63,-1.01,-0.98,inactive
ADAM23,1,-0.18,-0.02,-0.32,-0.2,inactive
PHF3,1,0.97,0.64,0.96,1.29,inactive
CCDC144NL,1,-0.08,-0.15,-0.07,-0.02,inactive
OTOA,1,1.44,1.49,1.45,1.38,inactive
SLC8A1,1,-0.53,-0.8,-0.44,-0.36,inactive
MYO5A,1,0.92,0.94,0.8,1.03,inactive
MAPK1,1,0.87,1.16,0.73,0.72,inactive
CDK5RAP2,1,-0.55,-1.11,-0.32,-0.24,inactive
ISL1,1,-0.65,-0.55,-0.77,-0.61,inactive
DEPDC5,1,2.19,2.28,2.26,2.03,active
FGF7P6,1,-0.12,0.14,-0.01,-0.49,inactive
LOC401396 (retired record),1,0.23,0.46,0.17,0.05,inactive
LOC401396 (retired record),2,0.14,0.13,-0.06,0.34,inactive
BIN1,1,0.03,0.44,-0.24,-0.13,inactive
GCOM1,1,-2.34,-2.32,-2.19,-2.51,inactive
LINC00173,1,0.38,0.38,0.37,0.38,inactive
PNLIP,1,-1.14,-1.34,-0.83,-1.26,inactive
BABAM2,1,0.59,0.5,0.23,1.03,inactive
PLA2G2A,1,0.85,1.13,0.51,0.91,inactive
